PubChem BioAssay AID1259414 | Drosophila RNAi Screening Center – 2018
The deposit covers about 24,000 reagents; this is a random part of those that have a named target and a result. In the full data, about 1,210 (5%) were called active. 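Inactive calls also include excluded dsRNAs with several or no targets, genes unexpressed in JW18, and well A1, regardless of score.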 Unmarked entries are inactive. Reagents against one gene are numbered here. Names joined by + are all predicted targets of the reagent.

Screen: 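Host factors increasing or decreasing Wolbachia levels in cultured fly cells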 (primary screen)
System: Drosophila JW18 cells infected with Wolbachia
Knock-down reagent: long dsRNA against Drosophila genes, 0.25 µg dsRNA per well of a 384-well plate
Duration: 5 days
Treatment: cells persistently infected with Wolbachia before knock-down; no added drug
Read-out: 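Imaged fluorescence in situ signal for Wolbachia 23S rRNA per DAPI-counted host cell, given as a robust z-score within each plate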
Scale: Wolbachia per cell robust z: higher = more Wolbachia per host cell than the plate typical
Rule for the call: 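Active if absolute robust z reaches 1.5 in two or more of three replicates, leaving out multi- or no-target dsRNAs, genes unexpressed in JW18 and A1 wells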

no.	predicted target	reagent	Wolbachia per cell robust z, rep 1	Wolbachia per cell robust z, rep 2	Wolbachia per cell robust z, rep 3
1	ap	1	-5.5 (active)	0.794	-2.26
2	Hex-A	1	-0.747	-0.634	-0.926
3	Hex-A	2	-0.581	-0.264	-1.32
4	Su(var)2-10	1	1.07	1.87	0.2
5	Su(var)2-10	2	-0.192	-0.859	-0.624
6	Utx	1	-6.29	0.79	-0.0636
7	CG17803	1	-1.37	-0.0284	0.198
8	CG17803	2	-2.96 (active)	-3.42	-0.561
9	CG15628	1	-0.201	0.494	-0.258
10	CG15628	2	0.0277	-0.703	-0.0126
11	CG34437	1	-1.31	-5.41	0.271
12	Nazo	1	0.53	-0.329	-0.146
13	CG33764	1	1.09	0.489	1.53
14	HisRS	1	0.983	-1.41	0.862
15	ATPsyngamma	1	-0.456	1.36	0.763
16	Son	1	0.437	-1.07	0.21
17	Nup37	1	0.191	-1.63	-0.101
18	CG3841	1	0.141	-0.449	-0.382
19	mTTF	1	-0.71	-1.12	0.27
20	Trmt61	1	-3.95 (active)	-0.505	-3.12
21	mRpS35	1	0.347	0.838	0.686
22	CG17666	1	0.376	0.78	-0.503
23	CG17666	2	-0.747	-1.46	-0.974
24	CG13073	1	-4.25	0.0315	-0.837
25	CG13073	2	-0.105	0.51	-0.417
26	Cnx14D + Cnx99A	1	-5.39	-0.793	-3.84
27	Cyp4ac3	1	-0.0464	-2.75	0.83
28	CG14327	1	0.534	1.03	0.44
29	Slob	1	0.186	-0.919	-4.68
30	Slob	2	0.963	-0.925	-0.0995
31	RpS27A	1	1.9 (active)	-3.67	2.03
32	RpS27A	2	0.562	0.923	1.5
33	CG32374	1	-0.113	0.254	-1.89
34	Npc2e	1	-0.19	0.638	0.63
35	Npc2e	2	0.56	-0.188	0.444
36	Apoltp	1	0.701	0.247	-0.206
37	CG11658	1	-0.0123	-1.5	-0.968
38	CG3803	1	0.256	-2.88	0.0826
39	Mtap	1	0.499	0.0198	0.896
40	CG18765	1	0.728	-0.291	0.863
41	CG32235	1	0.745	0.953	0.826

Part of the list above in another layout.
Hex-A #1
- Wolbachia per cell robust z, rep 1: -0.747
- Wolbachia per cell robust z, rep 2: -0.634
- Wolbachia per cell robust z, rep 3: -0.926

Hex-A #2
- Wolbachia per cell robust z, rep 1: -0.581
- Wolbachia per cell robust z, rep 2: -0.264
- Wolbachia per cell robust z, rep 3: -1.32

Su(var)2-10 #1
- Wolbachia per cell robust z, rep 1: 1.07
- Wolbachia per cell robust z, rep 2: 1.87
- Wolbachia per cell robust z, rep 3: 0.2

Su(var)2-10 #2
- Wolbachia per cell robust z, rep 1: -0.192
- Wolbachia per cell robust z, rep 2: -0.859
- Wolbachia per cell robust z, rep 3: -0.624

Utx
- Wolbachia per cell robust z, rep 1: -6.29
- Wolbachia per cell robust z, rep 2: 0.79
- Wolbachia per cell robust z, rep 3: -0.0636

CG17803 #1
- Wolbachia per cell robust z, rep 1: -1.37
- Wolbachia per cell robust z, rep 2: -0.0284
- Wolbachia per cell robust z, rep 3: 0.198

CG17803 #2
- Wolbachia per cell robust z, rep 1: -2.96 (active)
- Wolbachia per cell robust z, rep 2: -3.42
- Wolbachia per cell robust z, rep 3: -0.561

The list goes on.
no.	predicted target	reagent	Wolbachia per cell robust z, rep 1	Wolbachia per cell robust z, rep 2	Wolbachia per cell robust z, rep 3
42	GstO3	1	0.4	0.28	-0.338
43	slmo + CG34179 + IPIP	1	0.0203	-2.88	0.255
44	CG14760	1	-0.715	-0.19	0.297
45	CG14760	2	1.84	0.652	-5.09
46	CG30423	1	0.123	-0.904	0.427
47	CG34250	1	-3.93	0.173	-1.17
48	alpha-Est7	1	-1.25	0.751	-0.429
49	alpha-Est7	2	1.29	0.671	0.559
50	CG6484	1	-1.37	-2.17	0.919
51	CG6484	2	-0.453	-0.666	0.27
52	rdgC	1	-0.697	-1.11	-1.83
53	rdgC	2	-0.583	-0.975	-0.501
54	Eh	1	0.261	1.11	0.76
55	dj-1beta	1	0.194	-0.118	-1.55
56	dj-1beta	2	0.134	0.31	-9.66
57	jing	1	0.941	0.325	0.764
58	jing	2	0.616	0.985	-4.63
59	CR41597 + mRpS5 + CR42723 + 1 more	1	-1.32	-1.43	-6.33
60	TBPH	1	0.309	-3.72	-0.287
61	TBPH	2	-1	-2.64	-0.76
62	CG42693	1	-0.0477	-0.2	-2
63	lncRNA:CR40469 + lncRNA:CR34335	1	-0.674	0.218	-0.69
64	CG3640	1	-2.65	0.428	0.675
65	CG14455	1	0.731	-0.865	0.702
66	CG14455	2	-0.19	-0.468	0.233
67	Mys45A	1	0.2	1.08	0.652
68	Mys45A	2	0.964	0.556	0.128
